We go through three sequences from US7731971B2, “Enhanced CTL epitope-containing HIV-1 reverse transcriptase polypeptides” (The United States of America as represented by the …, priority 2003, dated 2010).

Experiment [1] relates to RT-WT-pulsed target. The experiment in a line: In vivo immunogenicity: CTL response against RT-WT after immunization of A2Kb-transgenic mice. As to conditions: 0.01 μM peptide (FIG. 5A).
Experiment [2] concerns peptide-pulsed Jurkat-A2K^b or C1R.AAD target cells. The note with it: HHD-2-derived CTL line (FIG. 2B).

Turning to VIYQYMDDL [RT-WT], in experiment [1], the “CTL response against RT-WT-pulsed target with 0.01 μM peptide” value was “failed to raise a CTL response above background levels”.

Turning to YLYQYMDDV, the “recognition of peptide-pulsed targets by RT-WT specific CTL” value in experiment [2] was “did not recognize”.

As to YIYQYMDDL [RT-1Y], in experiment [2], the “recognition of peptide-pulsed targets by RT-WT specific CTL” value was “did not recognize”.
